{"source": "patent US20090042870A1", "about": "“Antimicrobial Composition” (priority 2005, published 2009)", "test": "User opinion poll (smell, feel, preference)", "settings": "sum of scores Good = +1, No opinion = 0, Poor = −1; 15 participants"}
{"smiles": "CC(C)O", "note": "[propan-2-ol 60% (v/v), Propan-2-ol]", "values": [{"measurement": "Feel score", "result": "−5"}, {"measurement": "Smell score", "result": "−9"}]}
